Biological target: proteinase K (Parengyodontium album, UniProt P06873)
Assay: Proteinase K digestion of peptide-TAR RNA photocrosslink products
Conditions: very vigorous proteinase K digestion
Experimental: For photochemical reactions, RNA duplex was prepared by hybridizing two strands ^24. Strand 1 of the duplex was 5′-end labeled with ^32P. Preformed RNA duplexes(0.02 μM) in the absence or presence of the peptide (0.1 μM) were irradiated ([…]) and analyzed by denaturing gels as described in Wang et al., Biochemistry 35, 6491-6499 (1996).

Amino acid sequences for entries named in this document (tags omitted). Residues count along the entry.
UniProt P06873, 106-384: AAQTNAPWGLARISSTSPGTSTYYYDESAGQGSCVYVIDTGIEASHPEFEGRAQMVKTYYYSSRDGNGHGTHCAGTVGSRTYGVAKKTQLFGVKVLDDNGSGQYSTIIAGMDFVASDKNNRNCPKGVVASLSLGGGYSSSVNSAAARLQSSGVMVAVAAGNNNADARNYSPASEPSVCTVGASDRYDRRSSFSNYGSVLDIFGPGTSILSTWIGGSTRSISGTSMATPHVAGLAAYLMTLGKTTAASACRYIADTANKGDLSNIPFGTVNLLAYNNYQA

CC[C@H](C)[C@H](NC(=O)CNC(=O)[C@H](CC(C)C)NC(=O)[C@H](C)NC(=O)[C@H](CCCCN)NC(=O)[C@@H](NC(=O)[C@@H](NC(=O)[C@H](Cc1ccccc1)NC(=O)[C@@H](N)CS)[C@@H](C)O)[C@@H](C)O)C(=O)N[C@@H](CO)C(=O)N[C@@H](Cc1ccc(O)cc1)C(=O)NCC(=O)N[C@@H](CCCNC(=N)N)C(=O)N[C@@H](CCCCN)C(=O)N[C@@H](CCCCN)C(=O)N[C@@H](CCCNC(=N)N)C(=O)N[C@@H](CCCNC(=N)N)C(=O)N[C@@H](CCC(N)=O)C(=O)N[C@@H](CCCNC(=N)N)C(=O)N[C@@H](CCCNC(=N)N)C(=O)N[C@@H](CCCNC(=N)N)C(=O)N1CCC[C@H]1C(=O)N1CCC[C@H]1C(=O)N[C@@H](CCC(N)=O)C(=O)NCC(=O)N[C@@H](CO)C(=O)N[C@@H](CCC(N)=O)C(=O)N[C@H](C(=O)N[C@@H](Cc1c[nH]cn1)C(=O)N[C@@H](CCC(N)=O)C(=O)N[C@H](C(=O)N[C@@H](CO)C(=O)N[C@@H](CC(C)C)C(=O)N[C@@H](CO)C(=O)N[C@@H](CCCCN)C(=O)N[C@@H](CCC(N)=O)C(=O)O)C(C)C)[C@@H](C)O [L-Tat(37-72)]
protease stability of peptide-RNA crosslink products: complete loss of RNA-protein crosslinking

Reference: patent US6468969B1, “Inhibition of HIV-1 replication using d-amino acid peptides” (priority 1997, dated 2002)
